Results of unrelated studies side by side (data: NIAID ChemDB).

Common to all: whole-cell or culture tests; organism: HIV-1; read by: p24; read-out: fold resistance

Lines come from different laboratories, so protocols vary. An empty or dashed field is not shown. Two numbers with a dash give a range or band. Fold resistance: result on the changed form divided by that on wild type.

{"SMILES": "Cc1cc(-c2ccc(CC(=O)O)cc2)ccc1OCCc1cnc2c(c1)C(=O)N(C)c1cccnc1N2", "cells": "C8166", "mutations": "RT-K103N Y181C", "result": ">5"}
{"SMILES": "CCN1c2ncc(CCOc3ccc(C(=O)O)c4c3CCN(S(=O)(=O)N(C)C)C4)cc2C(=O)N(C)c2cccnc21", "cells": "C8166", "mutations": "RT-K103N Y181C", "result": "1"}
{"SMILES": "COC(=O)[C@H](C)NP(=O)(OC[C@@H]1C=C[C@H](n2cc(C)c(=O)[nH]c2=O)O1)Oc1ccc(Cl)cc1", "strain or isolate": "A17", "cells": "PBMC", "mutations": "RT-Y181C", "result": "79"}
{"SMILES": "CCN1c2ncc(CCOc3ccc(C4CC4C(=O)O)c4ccccc34)cc2C(=O)N(C)c2ccc(F)nc21", "cells": "C8166", "mutations": "RT-K103N Y181C", "result": "1–10"}
{"SMILES": "CC(C)=CCOc1cc(NC(=S)c2ccoc2C)ccc1Cl", "strain or isolate": "NL4-3", "cells": "CEM + CEM-SS", "mutations": "RT-Y188C", "result": "1.67"}
{"SMILES": "COC(=O)[C@H](C)NP(=O)(OC[C@@H]1C=C[C@H](n2cc(C)c(=O)[nH]c2=O)O1)Oc1cc(Cl)ccc1Cl", "strain or isolate": "RTMDR", "cells": "PBMC", "mutations": "RT M41L L74V T215Y V106N", "result": "22"}
{"SMILES": "CCN1c2ncc(CCOc3ccc(/C=C(\\C)C(=O)O)c4ccccc34)cc2C(=O)N(C)c2ccc(C)nc21", "cells": "C8166", "mutations": "RT-K103N Y181C", "result": "1"}
{"SMILES": "CC(C)[C@H](NC(=O)OCc1ccccn1)C(=O)N[C@@H](Cc1ccccc1)[C@@H](O)C[C@H](Cc1ccccc1)NC(=O)OCc1cccnc1", "strain or isolate": "NL4-3", "cells": "MT-4", "mutations": "PR-L10R M46I V82T", "result": "1.875"}
{"SMILES": "COc1c(Cl)ccc2c1[C@@](C#Cc1ccccc1)(C(F)(F)F)NC(=O)N2", "cells": "MT-4", "mutations": "RT-L100I K103N", "result": "698.1"}
{"SMILES": "CCN1c2ncc(CCOc3ccc(C(C)C(=O)O)c4ccccc34)cc2C(=O)N(C)c2cccnc21", "cells": "C8166", "mutations": "RT-K103N Y181C", "result": "1"}
{"SMILES": "CCN1c2ncc(CCOc3ccc(NC(=O)CC4(C(=O)O)CCCC4)cc3C)cc2C(=O)N(C)c2cccnc21", "cells": "C8166", "mutations": "RT-K103N Y181C", "result": "1"}
{"SMILES": "Cc1cc(C)cc(S(=O)(=O)c2c(C(=O)NNCCO)[nH]c3ccc(Cl)cc23)c1", "strain or isolate": "EFV-resistant (RT K103R V179D P225H)", "cells": "C8166", "mutations": "RT-K103R V179D P225H", "result": "200"}
{"SMILES": "Cc1cc(C)cc(S(=O)(=O)c2c(C(N)=O)[nH]c3c(Cl)cc(Cl)cc23)c1", "strain or isolate": "IIIB", "cells": "C8166", "mutations": "RT-K103N Y181C", "result": ">62.5"}
{"SMILES": "O=C1Nc2ccc(Cl)c(O)c2[C@@](C#Cc2ccccc2)(C(F)(F)F)N1", "cells": "MT-4", "mutations": "RT-L100I K103N", "result": "284.7"}
{"SMILES": "CCCCCCCCCCCCCCCCOCCCOP(=O)(O)CO[C@H](CO)Cn1cnc2c(N)ncnc21", "strain or isolate": "4xAZT", "cells": "MT-2", "mutations": "RT-D67N K70R T215Y K219Q", "result": "0.7"}
{"SMILES": "CCN1c2ncc(CCOc3ccc(-c4ccc(C(=O)O)s4)cc3)cc2C(=O)N(C)c2cccnc21", "cells": "C8166", "mutations": "RT-K103N Y181C", "result": "1"}
{"SMILES": "COC(=O)[C@H](C)NP(=O)(OC[C@@H]1C=C[C@H](n2cc(C)c(=O)[nH]c2=O)O1)Oc1ccc(Br)cc1Cl", "strain or isolate": "RTMDR", "cells": "PBMC", "mutations": "RT M41L L74V T215Y V106N", "result": "234"}
{"SMILES": "CCN1c2ncc(CCOc3ccc(NS(=O)(=O)C(F)(F)F)c4ccccc34)cc2C(=O)N(C)c2ccc(F)nc21", "cells": "C8166", "mutations": "RT-V106A", "result": "1–10"}
{"SMILES": "O=C1Nc2ccc(Cl)cc2[C@@](C#CC2CC2)(C(F)(F)F)N1", "cells": "MT-4", "mutations": "RT-L100I K103N", "result": "550"}
{"SMILES": "Nc1nc(=O)n([C@H]2C=C[C@@H](CO)O2)cc1F", "strain or isolate": "XM-M184V", "cells": "MT-4", "mutations": "RT-M184V", "result": "1.4"}
{"SMILES": "CCN1c2ncc(CCOc3ccc(-c4ccc(C)[n+]([O-])c4)cc3C)cc2C(=O)N(C)c2cccnc21", "cells": "C8166", "mutations": "RT-K103N Y181C", "result": "1"}
{"SMILES": "C=C1c2cc(CCOc3ccc(NS(C)(=O)=O)c4ccccc34)cnc2N(CC)c2ncccc2N1C", "cells": "C8166", "mutations": "RT-K103N Y181C", "result": "1"}
{"SMILES": "CCN1c2ncc(CCOc3ccc(-c4cc(C(=O)O)c[n+]([O-])c4)cc3C)cc2C(=O)N(C)c2cccnc21", "cells": "C8166", "mutations": "RT-K103N Y181C", "result": "1"}
{"SMILES": "O=C1Nc2ccc(Cl)c3c2[C@](C(F)(F)F)(C=C(c2cccnc2)O3)N1", "cells": "MT-4", "mutations": "RT-K103N", "result": "16.52"}
{"SMILES": "CCN1c2ncc(CCOc3ccc(-c4cc(C(=O)O)on4)cc3C)cc2C(=O)N(C)c2cccnc21", "cells": "C8166", "mutations": "RT-K103N Y181C", "result": "1"}
{"SMILES": "CC1(C)Oc2ccc3ccc(=O)oc3c2[C@@H](OC(=O)C23CCC(C)(C(=O)O2)C3(C)C)[C@H]1OC(=O)C12CCC(C)(C(=O)O1)C2(C)C", "strain or isolate": "NL4-3", "cells": "MT-4", "mutations": "RT-E138K", "result": "100"}
{"SMILES": "CCN1c2ncc(CCOc3ccc4cc(CC(=O)O)ccc4c3C)cc2C(=O)N(C)c2cccnc21", "cells": "C8166", "mutations": "RT-V106A", "result": "1–10"}
{"SMILES": "CCN1c2nc(C(F)(F)F)ccc2NC(=O)c2cc(CCOc3cc[n+]([O-])c4ccccc34)cnc21", "cells": "C8166", "mutations": "RT-K103N Y181C", "result": "2.2"}
{"SMILES": "Cc1cc(-c2ccc[n+]([O-])c2)ccc1OCCc1cnc2c(c1)C(=O)Nc1c(C)ccnc1N2C1CC1", "cells": "C8166", "mutations": "RT-K103N Y181C", "result": ">1"}
{"SMILES": "CCN1c2ncc(CCOc3ccc(/C=C(\\C)C(=O)O)c4ccccc34)cc2C(=O)N(C)c2ccc(F)nc21", "cells": "C8166", "mutations": "RT-K103N Y181C", "result": "1"}

The last 2 rows once more:

SMILES	strain or isolate	cells	mutations	result
Cc1cc(-c2ccc[n+]([O-])c2)ccc1OCCc1cnc2c(c1)C(=O)Nc1c(C)ccnc1N2C1CC1		C8166	RT-K103N Y181C	>1
CCN1c2ncc(CCOc3ccc(/C=C(\C)C(=O)O)c4ccccc34)cc2C(=O)N(C)c2ccc(F)nc21		C8166	RT-K103N Y181C	1